# Molecular target: S. aureus ATCC 29213 FabI (Staphylococcus aureus, UniProt Q6GI75)
# Sequences of proteins named here, by UniProt entry; tags and fusion partners are left off.
# UniProt Q6GI75, whole entry: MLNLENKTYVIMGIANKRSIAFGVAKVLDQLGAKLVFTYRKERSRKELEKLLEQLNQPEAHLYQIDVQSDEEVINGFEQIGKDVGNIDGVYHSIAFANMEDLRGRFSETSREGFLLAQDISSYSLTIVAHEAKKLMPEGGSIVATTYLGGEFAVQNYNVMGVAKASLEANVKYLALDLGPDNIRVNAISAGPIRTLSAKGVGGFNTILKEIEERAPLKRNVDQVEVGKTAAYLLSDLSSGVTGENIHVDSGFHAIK
# Assay: Staphylococcus aureus FabI enzyme inhibition assay
# Type: biochemical
# Conditions: 30 minutes at room temperature, NADH consumption
# Protocol: FabI enzyme inhibition assays were carried out in half-area, 384-well microtitre plates. Compounds were evaluated in 40-μl assay mixtures containing 100 mM NaADA, pH 6.5 (ADA=N-[2-acetamido]-2iminodiacetic acid), 250 μM crotonoyl-CoA, 625 μM NADH and 50 μg/ml S. aureus ATCC 29213 FabI Inhibitors were typically varied over the range of 50 to 0.39 μM. The reaction mixtures were incubated for 30 minutes at room temperature and the reaction was stopped by adding 200 mM Tris buffer (pH 9.0) to create a pH-shift. The consumption of NADH was monitored by measuring the change in absorbance at […]. By comparing sample readings to those of negative (absence of compound) and positive (absence of enzyme) controls, the percent inhibition of enzymatic activity of the compounds was determined. A best-fit curve is fitted by a minimum of squares method. From this an IC50-value (expressed in μg/ml), resulting in 50% inhibition of enzymatic activity, was obtained.
row,Structure (SMILES),FabI IC50 [µg/mL]
1,O=C1CCc2cc(/C=C/C(=O)N3CCC=C(c4cc(Cl)cc(Cl)c4)CC3)cnc2N1,1.09
2,COc1ccccc1C1CCCN(C(=O)/C=C/c2cnc3c(c2)CCC(=O)N3)CC1 (stereo not shown),0.48
3,O=C1CCc2cc(/C=C/C(=O)N3CC=C(c4cc(Cl)cc(Cl)c4)CCC3)cnc2N1,1.01
4,CC1=C(c2ccccc2)CCCN(C(=O)/C=C/c2cnc3c(c2)CCC(=O)N3)C1,1.07
5,O=C1CCc2cc(/C=C/C(=O)N3CCC=C(c4cccc(Cl)c4Cl)CC3)cnc2N1,0.82
6,O=C1CCc2cc(/C=C/C(=O)N3CCC=C(c4cccs4)CC3)cnc2N1,0.4
7,O=C1CCc2cc(/C=C/C(=O)N3CCC=C(c4ccccc4OC(F)(F)F)CC3)cnc2N1,0.68
8,O=C1CCc2cc(/C=C/C(=O)N3CC=C(c4cccc(Cl)c4Cl)CCC3)cnc2N1,0.84
9,O=C1CCc2cc(/C=C/C(=O)N3CCC=C(c4cccc(OC(F)(F)F)c4)CC3)cnc2N1,0.76
10,O=C1CCc2cc(/C=C/C(=O)N3CCCC(n4cccc4)CC3)cnc2N1 (stereo not shown),1.70
11,O=C1CCc2cc(/C=C/C(=O)N3CC=C(c4nccs4)CCC3)cnc2N1,0.41
12,O=C1CCc2cc(/C=C/C(=O)N3CC=C(c4cc(F)cc(Cl)c4)CCC3)cnc2N1,0.72
13,O=C1CCc2cc(/C=C/C(=O)N3CC=C(c4ccccc4OC(F)(F)F)CCC3)cnc2N1,0.68
14,O=C1CCc2cc(/C=C/C(=O)N3CCC=C(c4cc(F)cc(Cl)c4)CC3)cnc2N1,0.66
15,O=C1CCc2cc(/C=C/C(=O)N3CCC=C(c4nccs4)CC3)cnc2N1,0.39
16,O=C1CCc2cc(/C=C/C(=O)N3CCCC(F)(F)CC3)cnc2N1,4.22

# — patent US9394295B2, “Antibacterial homopiperidinyl substituted 3,4-dihydro-1H-[1,8]naphthyridinones” (Janssen Sciences Ireland UC, priority 2011, dated 2016)
